Screening data, single-dose tests

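Growth of Mycobacterium tuberculosis over 4 days (cholesterol / DPPC medium with tyloxapol); the read-out is not stated. Compounds at 500 µM. Direction is inferred from retests: higher values go with more growth inhibition. Of about 18,000 compounds tested this way, about 900 (5%) reached 50% or more in at least one test.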

The filed quantity is “Percent Effect” (%). The controls that fix the scale are not given in the record; negative values are as filed. The entries come from a sample that favours strong results.

structure,percent effect
NCCCOC1CCN(C(=O)c2ccc(Br)o2)CC1,31.5
COCCNS(=O)(=O)c1cn[nH]c1C,3.958
CS(=O)(=O)Cc1ccc(C(=O)Nc2ccccc2)cc1,-2.463
CC(Nc1nc2ccccc2o1)C(=O)N1CCOCC1 (stereo not drawn),38.59
CN(c1ccccc1C#N)S(C)(=O)=O,19.55
COc1ccccc1-c1noc(C(C)N)n1 (stereo not drawn),3.508
Cc1ccc(C2CCCN2S(=O)(=O)N2CCOCC2)o1 (stereo not drawn),-25.89
CC(C)(N)CN1CCCN(c2ccc(F)cc2)CC1,66.46
CN1CCC(C(=O)NCc2ccc(C#N)cc2)CC1=O (stereo not drawn),-1.247
O=C(c1ccccn1)N1CCN(C(=O)C2CC2)CC1,1.571
O=S1(=O)CCC(NC2CCCC2)C1 (stereo not drawn),-7.93
Cc1cccc(C(=O)NCc2cccc(O)c2)n1,56.25
COc1cccc(CNS(=O)(=O)Cc2ccon2)c1,-4.469
CSCC1CCN(CCC(=O)Nc2cccnc2)CC1,7.815
Cc1n[nH]c(C)c1C(N)C(=O)NCCc1ccnn1C (stereo not drawn),-5.348
CCOC(=O)C1CCCN(Cc2cccnc2)C1 (stereo not drawn),15.56
Cc1ccc(C(=O)N(C)CC2(C)CCOCC2)cn1,-3.272
O=C(Cc1cccs1)N1CCC(Nc2cccnc2)C1 (stereo not drawn),17.18
CCNc1cccc(OC)c1,76.09
Cn1ncc(CNC(=O)Nc2ccccn2)c1N,8.59
Cc1ccc(NC(=O)CCCc2nc(C)no2)nc1,9.936
CC(C)N(CCOc1cccc(F)c1)CC(N)=O,50.26
CC(=O)Nc1ccc(CN)cn1,-9.272
Cc1ccc(C(C)NC(=O)CCNS(C)(=O)=O)o1 (stereo not drawn),-11.79
CN(Cc1ccco1)C(=O)c1cc(C2CC2)[nH]n1,69.93
NS(=O)(=O)c1ccc(NC(=O)N2CCCCC2)cc1,-4.468
Cc1nn(CC(=O)N[C@@H]2CCNC[C@H]2O)c(C)c1C,-17.26
CCOCCC(=O)N1CCC2(CC1)C(=O)NCCN2C,2.992
CNCc1csc(C)n1,5.951
CN(CCSc1nnc[nH]1)c1ccccc1,39.63
COc1cccc(S(=O)(=O)CCN2CCCC2CO)c1 (stereo not drawn),65.05
CCOC(=O)CN(C(C)=O)c1ccc(C)cc1,22.74
Cc1ccc(F)c(C(=O)N[C@@H]2CNC[C@H]2O)c1Cl,51.16
Ic1nnnn1-c1ccccc1,116
CN1C(=O)[C@H]2CN(Cc3ccc(Cl)cc3F)C[C@H]2C1=O,1.9
Cc1nc(C2(N)CCC2)no1,-7.464
C[C@@H](C#N)NC(=O)OC(C)(C)C,9.344
CC(=Cc1ccccc1)CN1CCN(S(N)(=O)=O)CC1,38.34
CCC(CO)NS(=O)(=O)c1ccc(C)cc1 (stereo not drawn),3.732
CN(Cc1cnn(C)c1)C(=O)C1CCC(=O)NC1 (stereo not drawn),-3.566
CCC(CC)(NC(=O)c1noc2c1CCCC2)C(N)=O,15.65
N#Cc1ccc(S(=O)(=O)CC(N)=O)c(Cl)c1,-6.83
Cc1cccc(NC(=O)c2cccnc2O)n1,-2.135
Cc1ccc2c(OCC(N)=O)cccc2n1,-3.914
NC(=O)NC(=O)CSc1nnc(-c2ccccc2F)[nH]1,-15.9
CC(=O)N1CCN(CC(O)COc2ccccc2)CC1 (stereo not drawn),5.372
Cc1nccn1CCCN1CCN(C2CCNC2)CC1 (stereo not drawn),-10.19
Cc1cnccc1NCCn1ccnc1-c1ncc[nH]1,4.565
NC(=O)CO[C@H]1CCOC[C@H]1NC(=O)c1ccc(Cl)o1,-14.75
CCCNC(=O)CNc1cc(F)c(OC)c(F)c1,61.51
CCCc1noc(C(C)Nc2cccc(C(N)=O)c2)n1 (stereo not drawn),62.89
CC(C)COCC(C)NC(=O)c1ccc2nncn2c1 (stereo not drawn),4.825
OCc1nc(N2CCSCC2)c2ccccc2n1,0.2235
CN1N=C(C(=O)NCc2ccc(Cl)cc2)CCC1=O,65.91
CS(=O)(=O)N(CC(=O)N1CCCC1)c1ccc(Cl)cc1,26.77
FC(F)(F)c1ccc(OC2CCNCC2)nc1,55.56
CNC1CCN(C)C1=O (stereo not drawn),-14.85
CCC(NC(=O)CCCc1cn[nH]c1)[C@H]1C[C@H](O)C1 (stereo partly drawn),-9.262
CN(Cc1ccc(N)nc1)c1ccc(C#N)cn1,44.92

Measurements from “University of Dundee, Small-Polar-MMV Screening Library” (2021), ChEMBL document CHEMBL3988442.